Pooled drug test results. Numbers come from NIAID ChemDB, via PubChem.

Common to all: whole-cell or culture tests; agent: Herpes simplex virus 1; measure: EC50

An empty or dashed field is not shown. Neighbouring rows are from separate reports. ECn: concentration that inhibits the pathogen or its effect by n%.

| smiles | cells | read by | strain or isolate | value |
|---|---|---|---|---|
| O=c1[nH]c(=O)n([C@H]2C[C@H](O)[C@@H](CO)O2)cc1/C=C/Br | HEL | cytopathic effect | KOS GCV-resistant | 35 µg/mL |
| O=c1ccn([C@@H]2[Se][C@H](CO)[C@@H](O)[C@H]2O)c(=O)[nH]1 | VERO | MTT |  | >100 µM |
| Nc1ncnc2c1ncn2C[C@@H](CO)OCP(=O)(O)O | VERO | cytopathic effect | KOS | 8.13 µg/mL |
| COc1ccccc1N1CCN(CCCN2C(=O)CCC(c3ccccc3)C2=O)CC1 | VERO 76 | MTT |  | >100 µM |
| Nc1ccn(C[C@@H](CO)OCP(=O)(O)O)c(=O)n1 | U87MG | cytopathic effect | KOS | 1.34 µg/mL |
| O=C(O)CP(=O)(O)O | HEL | cytopathic effect | KOS PMEDAP-resistant | 72.7 µg/mL |
| CCCCCCCCCCCCCCCC(=O)OCC(O)CO | HeLa | cytopathic effect | KOS | >200 µg/mL |
| COc1cc([C@@H]2c3cc4c(cc3[C@H](O)[C@H]3COC(=O)[C@H]23)OCO4)cc(OC)c1OC | MRC-5 |  | INOUE | 0.01 µg/mL |
| CC(=O)O[C@H]1CC[C@]2(C)C3CC[C@]4(C)C(=O)CCC4C3CC[C@H]2C1 | VERO | virus yield |  | 292 µM |
| COc1cc(C2c3cc4c(cc3C[C@H]3COC(=O)[C@H]23)OCO4)cc(OC)c1OC | MRC-5 |  | KOS | 0.004 µg/mL |
| Nc1nc(N)c2ncn(CCOCP(=O)(O)O)c2n1 | HEL | cytopathic effect | KOS PFA-resistant | 27.6 µg/mL |
| O=c1[nH]c(=O)n([C@H]2C[C@H](O)[C@@H](CO)O2)c[c]1[Hg+] | HELA TK- | virus yield | KOS | 0.448 µg/mL |
| CC(=O)O[C@H]1CC[C@]2(C)C3CC[C@]4(C)C(=O)[C@H](OC(C)=O)CC4C3CC[C@H]2C1 | VERO | virus yield |  | 218 µM |
| CO[C@H]1[C@@H](O)[C@H](O)[C@H](OC[C@@]23C[C@@H]4[C@H](C)CC[C@H]4[C@@]4(C=O)C[C@@H]2C=C(C(C)C)[C@@]34C(=O)O)O[C@@H]1C | HeLa | cytopathic effect | KOS | >200 µg/mL |
| Nc1nc2c(ncn2CCC(CO)CO)c(=O)[nH]1 | HEL | cytopathic effect | KOS GCV-resistant | >20 µg/mL |
| O=c1[nH]c(=O)n([C@H]2C[C@H](O)[C@@H](CO)O2)c[c]1[Hg+].OCC(O)C[S-] | KB | virus yield | KOS | 0.001 µg/mL |
| CC(=O)OC1CCC2(C)C(=CCC3C4CCC(=O)C4(C)CCC32)C1 | VERO | virus yield |  | 86.7 µM |
| O=c1ccn([C@@H]2[Se][C@H](CCO)[C@@H](O)[C@H]2O)c(=O)[nH]1 | VERO | MTT |  | 2.3 µM |
| CC(=O)O[C@H]1CC[C@@]2(C)C(=CC[C@@H]3[C@@H]2CC[C@@]2(C)[C@H]3CCC23OCCO3)C1 | VERO | virus yield |  | 481 µM |
| CCOC(=O)P(=O)(O)OCCOCn1cnc2c(=O)[nH]c(N)nc21 | VERO | cytopathic effect | L2 | 330.7 µM |
| Nc1nc2c(ncn2COCCO)c(=O)[nH]1 | VERO | virus yield |  | 0.311 µM |
| O=C1CCC(c2ccccc2)C(=O)N1CCCN1CCN(c2ccccn2)CC1 | VERO 76 | MTT |  | >100 µM |
| NC[C@H]1O[C@H](O[C@H]2[C@H](O[C@@H]3O[C@H](CO)[C@@H](O)[C@H]3O)[C@@H](O)[C@H](N)C[C@@H]2N)[C@H](N)[C@@H](O)[C@@H]1O | HeLa | cytopathic effect | KOS | >100 µg/mL |
| COc1cc(C2c3c(cc4c(c3OC)OCO4)C[C@H]3COC(=O)[C@H]23)cc(OC)c1OC | MRC-5 |  | INOUE | 0.072 µg/mL |
| NC(=O)c1cn([C@@H]2O[C@H](CO)[C@@H](O)[C@@H]2O)c2ncnc(N)c12 | BSC-1 | virus yield | S-148 | <0.9 µM |
| Nc1ncc2c(ncn2COC(CO)CO)n1 | HEL | cytopathic effect | KOS PMEA-resistant | 0.54 µg/mL |
| CO[C@@H]1[C@@H](OC(N)=O)[C@@H](O)[C@H](Oc2ccc3c(O)c(NC(=O)c4ccc(O)c(CC=C(C)C)c4)c(=O)oc3c2C)OC1(C)C | HeLa | cytopathic effect | KOS | >200 µg/mL |
| O=C1CCC(c2ccccc2)C(=O)N1CCCCN1CCN(c2ccccc2)CC1 | VERO 76 | MTT |  | >100 µM |
| Cc1cn([C@@H]2O[C@H](CO)[C@@H](O)[C@@H]2O)c(=O)[nH]c1=O | HEL | cytopathic effect | KOS S2242-resistant | 0.42 µg/mL |
| COc1ccccc1N1CCN(CCCCN2C(=O)CCC(c3ccccc3)C2=O)CC1 | VERO 76 | MTT |  | >100 µM |
| NC[C@H]1O[C@H](O[C@H]2[C@H](O)[C@@H](O)[C@H](N)C[C@@H]2N)[C@H](N)[C@@H](O)[C@@H]1O | HeLa | cytopathic effect | KOS | >200 µg/mL |
| C[C@]12CCC3C(CC[C@H]4C[C@@H](O)CC[C@]34C)C1C[C@@H](O)C2=O | VERO | virus yield |  | 117 µM |
| CCCC1CCC(=C2C(=O)CCC2=O)O1 | HeLa | cytopathic effect | KOS | >200 µg/mL |
| O=c1[nH]c(=O)n([C@H]2C[C@H](O)[C@@H](CO)O2)c[c]1[Hg+].OCC[S-] | KB | virus yield | KOS | 0.003 µg/mL |

The last 2 rows once more:

smiles,cells,read by,strain or isolate,value
CCCC1CCC(=C2C(=O)CCC2=O)O1,HeLa,cytopathic effect,KOS,>200 µg/mL
O=c1[nH]c(=O)n([C@H]2C[C@H](O)[C@@H](CO)O2)c[c]1[Hg+].OCC[S-],KB,virus yield,KOS,0.003 µg/mL